What was measured:
[1] = target: human 9-cis retinol dehydrogenase (9cRDH) (Homo sapiens, UniProt Q92781); assay: Inhibition of recombinant human 9cRDH activity (9-cis-retinol oxidation, CHO cell homogenate, HPLC); type: biochemical; conditions: phenylarsine oxide 15 μM; carbenoxolone 0.5 mM; all others 1 mM
mouse 9cRDH = mouse 9cRDH (Mus musculus, UniProt O55240); assay: Inhibition of recombinant mouse 9cRDH activity (9-cis-retinol oxidation, CHO cell homogenate, HPLC); type: biochemical; conditions: phenylarsine oxide 15 μM; carbenoxolone 0.5 mM; all others 1 mM

Protein sequences, listed by entry. Tags and fused reporters are not part of them. Lines headed by an entry give the natural chain unless they say otherwise; changes in a name come on top.
UniProt Q92781: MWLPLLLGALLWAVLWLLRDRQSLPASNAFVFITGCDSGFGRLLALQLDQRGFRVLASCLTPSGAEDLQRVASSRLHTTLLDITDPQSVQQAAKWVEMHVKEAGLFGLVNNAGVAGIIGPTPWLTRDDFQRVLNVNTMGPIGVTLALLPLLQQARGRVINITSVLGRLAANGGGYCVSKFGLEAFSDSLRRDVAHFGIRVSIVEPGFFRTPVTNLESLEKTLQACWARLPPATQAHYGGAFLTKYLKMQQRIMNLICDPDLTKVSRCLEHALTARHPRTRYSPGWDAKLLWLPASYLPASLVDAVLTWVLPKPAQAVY
UniProt O55240: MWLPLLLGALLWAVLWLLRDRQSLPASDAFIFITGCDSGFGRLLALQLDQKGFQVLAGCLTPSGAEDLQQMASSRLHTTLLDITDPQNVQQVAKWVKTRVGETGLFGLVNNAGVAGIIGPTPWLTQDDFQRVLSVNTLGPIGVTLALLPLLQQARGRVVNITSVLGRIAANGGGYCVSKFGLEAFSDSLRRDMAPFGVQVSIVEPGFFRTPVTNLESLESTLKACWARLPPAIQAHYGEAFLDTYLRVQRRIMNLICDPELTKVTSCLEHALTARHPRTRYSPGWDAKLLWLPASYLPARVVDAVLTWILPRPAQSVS

Question: What does the source list for `O=[As]c1ccccc1` (centres unmarked)?
Answer: influence of SCAD/alcohol dehydrogenase inhibiting reagents on recombinant human 9cRDH activity [1]: none of these compounds influenced; influence of SCAD/alcohol dehydrogenase inhibiting reagents on recombinant mouse 9cRDH activity (mouse 9cRDH): none of these compounds influenced
